Among the data in PubChem BioAssay AID1347417 (National Center for Advancing Translational Sciences (NCATS), 2020) are activity, negative = inhibition values, retold here.

This is a selection; strong and weak results do not stand in their true shares. Records with an inconclusive call do not appear. Active and inactive are the calls of the source. Calls follow the shape of the dose curve; as a rule, active = well fitted inhibition curve with a large enough effect; inconclusive = small, poorly fitted or top-dose-only effect; inactive = no such curve, though single readings can be large or run the other way.

A short description of this experiment: qHTS Primary assay for Inhibitors of Plasmodium falciparum Dd2 growth in vitro.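 Also: plate controls were DMSO vehicle for no effect and reference drug for full effect; nearly all actives have a fitted effect of over 65% in size.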 The following applies: P. falciparum Dd2 growth, SYBR Green, 72 h; at 28.9 µM (top of the series). The text has this: Malaria, a parasitic disease spread to humans through the bite of a Plasmodium infected Anopheles mosquito, continues to be a global health burden affecting millions of people, with an estimated 228 million cases and 405,000 deaths in 2018. Concerns about safety and limitations of current antimalarial treatments strongly emphasize the need to develop new therapeutic options. The scarce number of chemotypes and validated drug targets with efficacy against the liver stage, have hindered development of new antimalarials. To address this, a chemoprophylactic drug discovery effort was conducted through a combined phenotypic high-throughput asexual blood stage and liver stage screen, providing a robust foundation to identify liver-stage active lead chemotypes. Compounds were initially screened against Plasmodium falciparum Dd2 strain parasites using a in vitro SYBRGreen-1 based 72 hr proliferation assay to identify novel chemotypes to advance to liver stage assays. NIH/NCATS Early Translation Branch Assay Submitter (PI): Anton Simeonov Ph.D.
Malaria-vivax Assay Protocol: PROTOCOL TABLE (as described by Inglese et al., 2007) SEQUENCE No. (e.g., 1, 2, 3, etc.); […] (e.g., Cells, Incubation, Reagent, etc.); VALUE; DESCRIPTION SEQUENCE, Parameter, Description 1; Reagent; 3 uL complete malaria growth medium, 1536 TC treated Black clear bottom plate 2; Controls; 23 nL positive control artesunate (300 nM final) to column 1; Neutral control DMSO to columns 2-4 3; Compound; 23 nL of compounds in dose response concentration (29 uM to 0.5 nM final) 4; Reagent; 5 uL malaria infected red blood cells (2.5% hematocrit final, 0.3% parasitemia 5; Time; 72 hours at 37C (5% O2, 5% CO2, 90% N2; 95% Rh) 6; Reagent; 2 uL lysis buffer/SYBRGreen-1, 25 sec shake immediately following dispense 7; Time; ~16 hours at 37C (5% O2, 5% CO2, 90% N2; 95% Rh) 8; Detector; EnVision (PerkinElmer) bottom read at 485/14nm excitation and 535/25 nm emission NOTES (numbers refer to sequence above): 1; Complete Malaria Growth Media: 1X RPMI-1640 w/L-glutamine, 5.5g/L Albumax II, 367 uM Hypoxanthine, 25 mM HEPES, 0.25% Sodium Bicarbonate, 35 uM Gentamicin sulfate 2; Controls were added using the Kalypsis Pintool (Wako USA) equipped with 1536 pinhead 3; Compounds were added in a 7-point, titration with a high final concentration of 29 uM by Pintool from seven inter-plate titrations of library plates and two DMSO control plates at the beginning and end (see Yasgar et al., 2008). 4; Red blood cells infected with Plasmodium falciparum Dd2 parasites were used. 6; Lysis buffer: 20 mM Tris-HCl, 10 mM EDTA, 0.16% Saponin, 1.6% Triton-X, 10X SYBR Green. REFERENCE: Inglese J, Shamu CE, Guy RK. 2007. Reporting data from high-throughput screening of small-molecule libraries. Nat Chem Biol. doi:10.1038/nchembio0807-438 Yasgar A, Shinn P, Jadhav A, Auld D, Michael S, Zheng W, Austin CP, Inglese J, Simeonov A. 2008. Compound Management for Quantitative High-Throughput Screening. J Lab Autom 13:79-89. doi:10.1016/j.jala.2007.12.004
With `O=C(NCC1(N2CCOCC2)CCCCC1)c1ccccc1Br`, the activity, negative = inhibition is inactive: -17.6%.
Regarding `CCOc1ccc(C(=O)NCC2(N3CCOCC3)CCCCC2)cc1`, the activity, negative = inhibition is inactive: 17.1%.
With `CCCOc1cccc(C(=O)NCC2(N3CCOCC3)CCCCC2)c1`, the activity, negative = inhibition is inactive: -16.2%.
As for `COc1ccccc1C(=O)NCC1(N2CCOCC2)CCCCC1`, the figure is inactive: -13.9%; as for `O=C(NCC1(N2CCOCC2)CCCCC1)c1ccc(Cl)cc1`, inactive: -3.68%.
Under `COc1cc(C(=O)NCC2(N3CCOCC3)CCCCC2)cc(OC)c1OC` stands inactive: 16.3%; under `O=C(NCC1(N2CCOCC2)CCCCC1)c1ccccc1[N+](=O)[O-]`, inactive: -15%.
Under `O=C(NCC1(N2CCOCC2)CCCCC1)c1ccccc1` stands inactive: 7.57%.
